Experimental data taken from publication PMC10747034 (Tropical Medicine and Infectious Disease, 2023).

Tested on: Toxoplasma gondii tachyzoites of RH strain
Experiment: Post-treatment recovery (washout) assay
Assay type: cell-based
Protocol: NHDF monolayers in 12-well plates were infected with 5000 newly egressed tachyzoites from RH strain and then treated for 3 days with drug concentrations of 0.001 to 1 µM. After treatment, the medium with drugs was removed, and the cells were washed twice and incubated with a fresh medium without drugs for an additional 7 days to allow the remaining parasites (if still viable after treatment) to grow. The plates were then kept in an incubator at 37 °C in a humid atmosphere with 5% CO2 throughout the treatment.

With `CCc1nc(N)nc(N)c1C#CC(C)c1cc(OC)cc(-c2ccncc2)c1` (centres unmarked) [MMV1580844] as the compound, how does the “Times more active than PYR” value read?
Its value is 100.

What about the “Times more active than trimetrexate” value of the same compound?
The value was 10.
